Results of unrelated studies side by side (data: NIAID ChemDB).

Common to all: whole-cell or culture tests; species: Herpes simplex virus 1; measure: EC50

Rows are shuffled and stem from different studies. ECn is the concentration giving n% inhibition of infection, replication or growth. An empty or dashed field is not shown.

CC(C)c1cn([C@@H]2OC3COP(=O)(O)OC3[C@H]2O)c(=O)nc1N ; strain or isolate: KOS ; value: >400 µg/mL
N#CC1=CN(COCCO)S(=O)(=O)N=C1N ; cells: E6SM ; strain or isolate: VMW1837 (TK-) ; value: >400 µg/mL
O=C(NCc1ccc(Cl)cc1)c1c[nH]c2c(F)cc(CCCO)cc2c1=O ; strain or isolate: F891C ; value: 1.1 µM
CC(=O)OCCOCN1C=CC(=O)N(COCCO)S1(=O)=O ; cells: E6SM ; strain or isolate: B206 (TK-) ; value: >400 µg/mL
O=C(NCc1ccc(Cl)cc1)c1c[nH]c2c(F)cccc2c1=O ; strain or isolate: KOS ; value: 15 µM
Cc1cn([C@@H]2O[C@H](COP(=O)(O)O)[C@@H](O)[C@H]2O)c(=O)nc1N ; strain or isolate: F ; value: >400 µg/mL
CNc1ncnc2c1cnn2Cc1cn(CCCCO)nn1 ; cells: E6SM ; strain or isolate: VWM1837 ; value: >400 µg/mL
CC1=CC(=O)N(c2ccccc2)S(=O)(=O)N1COCCO ; cells: E6SM ; strain or isolate: F ; value: >400 µg/mL
CCCCCc1cn([C@@H]2O[C@H](COP(=O)(O)O)[C@@H](O)[C@H]2O)c(=O)nc1N ; strain or isolate: KOS ; value: >400 µg/mL
CC(=O)OCCOCN1C(=O)C=CN(COCCO)S1(=O)=O ; cells: E6SM ; strain or isolate: F ; value: >400 µg/mL
CSc1ncnc2c1cnn2Cc1cnnn1CCCCO ; cells: E6SM ; strain or isolate: KOS ; value: >400 µg/mL
NC1=CC(N)=NS(=O)(=O)N1COCCO ; cells: E6SM ; strain or isolate: B206 (TK-) ; value: >400 µg/mL
CCCCCCCCc1cn([C@@H]2O[C@H](COP(=O)(O)O)[C@@H](O)[C@H]2O)c(=O)nc1N ; strain or isolate: McIntyre ; value: >400 µg/mL
OCCCCn1cc(Cn2ncc3c(SCc4ccccc4)ncnc32)nn1 ; cells: E6SM ; strain or isolate: KOS ; value: >400 µg/mL
CCCCCCc1cn([C@@H]2O[C@H](COP(=O)(O)O)[C@@H](O)[C@H]2O)c(=O)nc1N ; strain or isolate: F ; value: >400 µg/mL
OCCCCn1nncc1Cn1ncc2c(SCc3ccccc3)ncnc21 ; cells: E6SM ; strain or isolate: VWM1837 ; value: >400 µg/mL

A second listing of 2 rows from above:

smiles,cells,strain or isolate,value
CCCCCc1cn([C@@H]2O[C@H](COP(=O)(O)O)[C@@H](O)[C@H]2O)c(=O)nc1N,,KOS,>400 µg/mL
CC(=O)OCCOCN1C=CC(=O)N(COCCO)S1(=O)=O,E6SM,B206 (TK-),>400 µg/mL